Values of other authors as cited in patent publication US20170369677A1, “MATERIALS FREE OF ENDOCRINE DISRUPTIVE ACTIVITY” (CertiChem, Inc., priority 2006, published 2017).

Conditions: statement in words

Cc1cc(C(C)(C)C)c(O)c(C(C)(C)C)c1 [BHT, Butylated hydroxytoulene]
toxic effects stated in text: other toxic activity
